From US10414808B2 (priority 2012, dated 2019)
Read-outs that look alike come from different tables or passages of the source.

Amino acid sequences for entries named in this document (tags omitted).
UniProt Q15858, whole entry W1161R, looked up: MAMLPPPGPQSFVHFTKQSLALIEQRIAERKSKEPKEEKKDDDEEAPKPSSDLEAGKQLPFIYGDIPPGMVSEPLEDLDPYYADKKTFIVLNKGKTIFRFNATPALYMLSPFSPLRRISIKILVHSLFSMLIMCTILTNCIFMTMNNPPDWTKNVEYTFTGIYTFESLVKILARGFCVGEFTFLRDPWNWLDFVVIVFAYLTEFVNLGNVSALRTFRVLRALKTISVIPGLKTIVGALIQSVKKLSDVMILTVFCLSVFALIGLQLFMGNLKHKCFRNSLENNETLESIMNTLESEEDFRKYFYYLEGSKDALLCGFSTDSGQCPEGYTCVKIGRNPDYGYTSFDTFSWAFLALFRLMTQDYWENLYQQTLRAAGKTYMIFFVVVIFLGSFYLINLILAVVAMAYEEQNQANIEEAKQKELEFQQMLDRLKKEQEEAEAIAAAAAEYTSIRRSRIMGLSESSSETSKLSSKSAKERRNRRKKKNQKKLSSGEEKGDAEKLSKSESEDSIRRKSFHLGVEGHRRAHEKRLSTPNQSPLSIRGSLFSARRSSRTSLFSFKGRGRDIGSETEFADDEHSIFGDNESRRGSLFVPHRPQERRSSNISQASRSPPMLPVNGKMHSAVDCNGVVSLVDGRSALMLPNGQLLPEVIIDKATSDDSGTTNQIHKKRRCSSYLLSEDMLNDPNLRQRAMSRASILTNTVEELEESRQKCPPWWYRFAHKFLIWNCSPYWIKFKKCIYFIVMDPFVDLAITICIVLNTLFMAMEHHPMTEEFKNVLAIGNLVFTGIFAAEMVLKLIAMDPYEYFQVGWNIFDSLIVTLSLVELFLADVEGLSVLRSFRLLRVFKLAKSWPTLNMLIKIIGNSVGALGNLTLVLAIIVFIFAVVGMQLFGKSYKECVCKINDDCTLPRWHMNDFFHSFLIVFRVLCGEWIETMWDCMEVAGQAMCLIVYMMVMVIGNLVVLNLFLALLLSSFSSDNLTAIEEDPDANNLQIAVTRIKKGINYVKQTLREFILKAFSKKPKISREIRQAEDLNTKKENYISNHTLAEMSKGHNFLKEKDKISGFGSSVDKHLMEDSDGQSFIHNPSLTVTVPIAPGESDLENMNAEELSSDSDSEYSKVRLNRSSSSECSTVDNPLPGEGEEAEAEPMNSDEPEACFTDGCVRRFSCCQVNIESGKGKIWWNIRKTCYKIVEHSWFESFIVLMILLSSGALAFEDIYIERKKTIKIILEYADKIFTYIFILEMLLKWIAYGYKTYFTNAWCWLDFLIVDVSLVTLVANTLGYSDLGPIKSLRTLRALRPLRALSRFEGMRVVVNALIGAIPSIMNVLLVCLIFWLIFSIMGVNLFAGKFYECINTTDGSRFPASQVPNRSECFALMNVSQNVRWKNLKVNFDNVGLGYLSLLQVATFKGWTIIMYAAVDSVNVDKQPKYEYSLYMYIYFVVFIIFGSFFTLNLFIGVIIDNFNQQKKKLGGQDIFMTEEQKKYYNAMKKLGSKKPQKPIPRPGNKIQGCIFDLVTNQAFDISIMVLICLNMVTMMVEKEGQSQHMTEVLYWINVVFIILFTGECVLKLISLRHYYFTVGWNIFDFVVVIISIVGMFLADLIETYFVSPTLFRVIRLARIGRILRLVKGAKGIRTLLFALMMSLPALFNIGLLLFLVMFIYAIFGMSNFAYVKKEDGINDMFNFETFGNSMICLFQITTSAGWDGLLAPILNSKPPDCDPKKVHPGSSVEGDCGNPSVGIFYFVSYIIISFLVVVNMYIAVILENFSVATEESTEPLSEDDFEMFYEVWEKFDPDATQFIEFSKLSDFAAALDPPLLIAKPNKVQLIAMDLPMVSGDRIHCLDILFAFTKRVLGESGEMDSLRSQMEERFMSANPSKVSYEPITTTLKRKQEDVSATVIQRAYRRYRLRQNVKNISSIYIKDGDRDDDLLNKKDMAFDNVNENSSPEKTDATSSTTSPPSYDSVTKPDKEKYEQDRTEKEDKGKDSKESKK
UniProt Q9UQD0, whole entry, looked up: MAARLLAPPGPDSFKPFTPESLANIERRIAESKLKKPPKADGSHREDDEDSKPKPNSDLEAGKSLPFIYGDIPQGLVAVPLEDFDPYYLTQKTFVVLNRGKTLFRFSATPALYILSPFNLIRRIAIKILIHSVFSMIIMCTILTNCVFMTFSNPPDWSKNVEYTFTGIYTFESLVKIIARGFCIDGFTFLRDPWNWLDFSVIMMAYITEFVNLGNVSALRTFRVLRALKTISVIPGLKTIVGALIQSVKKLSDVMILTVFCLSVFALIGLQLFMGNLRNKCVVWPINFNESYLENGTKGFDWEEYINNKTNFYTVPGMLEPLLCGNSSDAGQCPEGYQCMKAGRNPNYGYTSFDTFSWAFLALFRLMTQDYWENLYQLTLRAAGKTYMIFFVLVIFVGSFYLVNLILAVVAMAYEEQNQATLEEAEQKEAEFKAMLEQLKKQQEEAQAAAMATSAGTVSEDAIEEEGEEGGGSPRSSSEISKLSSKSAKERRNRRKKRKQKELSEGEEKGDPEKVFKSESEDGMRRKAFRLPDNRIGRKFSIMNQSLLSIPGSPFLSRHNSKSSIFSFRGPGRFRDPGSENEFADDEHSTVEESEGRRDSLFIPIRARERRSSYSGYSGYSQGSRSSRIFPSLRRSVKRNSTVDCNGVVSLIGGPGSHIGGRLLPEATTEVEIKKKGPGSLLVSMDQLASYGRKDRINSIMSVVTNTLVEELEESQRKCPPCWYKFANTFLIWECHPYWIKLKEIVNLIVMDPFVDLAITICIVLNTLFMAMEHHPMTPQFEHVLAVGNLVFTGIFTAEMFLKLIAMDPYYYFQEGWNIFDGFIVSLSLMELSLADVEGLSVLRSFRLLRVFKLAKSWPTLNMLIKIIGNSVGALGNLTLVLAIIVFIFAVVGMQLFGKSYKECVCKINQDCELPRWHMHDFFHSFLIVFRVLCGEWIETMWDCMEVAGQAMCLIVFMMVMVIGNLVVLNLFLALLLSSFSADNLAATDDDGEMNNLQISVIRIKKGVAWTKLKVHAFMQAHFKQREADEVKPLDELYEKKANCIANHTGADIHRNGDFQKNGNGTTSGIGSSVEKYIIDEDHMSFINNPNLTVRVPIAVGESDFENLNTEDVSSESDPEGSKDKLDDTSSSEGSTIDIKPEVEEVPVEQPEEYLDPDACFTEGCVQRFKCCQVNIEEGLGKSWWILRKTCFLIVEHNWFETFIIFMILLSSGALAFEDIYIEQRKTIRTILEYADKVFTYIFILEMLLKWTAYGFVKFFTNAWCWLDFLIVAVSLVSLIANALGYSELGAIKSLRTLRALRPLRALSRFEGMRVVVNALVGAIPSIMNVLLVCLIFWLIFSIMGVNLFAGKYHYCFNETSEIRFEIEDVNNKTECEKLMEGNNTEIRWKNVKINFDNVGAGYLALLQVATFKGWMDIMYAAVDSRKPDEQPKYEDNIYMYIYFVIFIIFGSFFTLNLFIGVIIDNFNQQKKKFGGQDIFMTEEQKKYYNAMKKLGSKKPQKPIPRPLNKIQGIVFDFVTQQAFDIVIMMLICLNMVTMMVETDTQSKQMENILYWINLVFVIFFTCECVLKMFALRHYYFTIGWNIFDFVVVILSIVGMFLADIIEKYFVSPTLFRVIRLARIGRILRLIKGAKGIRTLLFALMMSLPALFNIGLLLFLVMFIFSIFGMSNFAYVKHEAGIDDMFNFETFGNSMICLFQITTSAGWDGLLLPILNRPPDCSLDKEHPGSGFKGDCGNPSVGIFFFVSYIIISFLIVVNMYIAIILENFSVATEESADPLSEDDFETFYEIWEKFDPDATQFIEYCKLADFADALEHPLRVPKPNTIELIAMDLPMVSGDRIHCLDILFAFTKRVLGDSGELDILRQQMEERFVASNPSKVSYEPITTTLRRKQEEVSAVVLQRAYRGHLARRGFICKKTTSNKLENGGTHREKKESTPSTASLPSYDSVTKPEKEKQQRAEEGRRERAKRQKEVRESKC
UniProt Q99250, whole entry, looked up: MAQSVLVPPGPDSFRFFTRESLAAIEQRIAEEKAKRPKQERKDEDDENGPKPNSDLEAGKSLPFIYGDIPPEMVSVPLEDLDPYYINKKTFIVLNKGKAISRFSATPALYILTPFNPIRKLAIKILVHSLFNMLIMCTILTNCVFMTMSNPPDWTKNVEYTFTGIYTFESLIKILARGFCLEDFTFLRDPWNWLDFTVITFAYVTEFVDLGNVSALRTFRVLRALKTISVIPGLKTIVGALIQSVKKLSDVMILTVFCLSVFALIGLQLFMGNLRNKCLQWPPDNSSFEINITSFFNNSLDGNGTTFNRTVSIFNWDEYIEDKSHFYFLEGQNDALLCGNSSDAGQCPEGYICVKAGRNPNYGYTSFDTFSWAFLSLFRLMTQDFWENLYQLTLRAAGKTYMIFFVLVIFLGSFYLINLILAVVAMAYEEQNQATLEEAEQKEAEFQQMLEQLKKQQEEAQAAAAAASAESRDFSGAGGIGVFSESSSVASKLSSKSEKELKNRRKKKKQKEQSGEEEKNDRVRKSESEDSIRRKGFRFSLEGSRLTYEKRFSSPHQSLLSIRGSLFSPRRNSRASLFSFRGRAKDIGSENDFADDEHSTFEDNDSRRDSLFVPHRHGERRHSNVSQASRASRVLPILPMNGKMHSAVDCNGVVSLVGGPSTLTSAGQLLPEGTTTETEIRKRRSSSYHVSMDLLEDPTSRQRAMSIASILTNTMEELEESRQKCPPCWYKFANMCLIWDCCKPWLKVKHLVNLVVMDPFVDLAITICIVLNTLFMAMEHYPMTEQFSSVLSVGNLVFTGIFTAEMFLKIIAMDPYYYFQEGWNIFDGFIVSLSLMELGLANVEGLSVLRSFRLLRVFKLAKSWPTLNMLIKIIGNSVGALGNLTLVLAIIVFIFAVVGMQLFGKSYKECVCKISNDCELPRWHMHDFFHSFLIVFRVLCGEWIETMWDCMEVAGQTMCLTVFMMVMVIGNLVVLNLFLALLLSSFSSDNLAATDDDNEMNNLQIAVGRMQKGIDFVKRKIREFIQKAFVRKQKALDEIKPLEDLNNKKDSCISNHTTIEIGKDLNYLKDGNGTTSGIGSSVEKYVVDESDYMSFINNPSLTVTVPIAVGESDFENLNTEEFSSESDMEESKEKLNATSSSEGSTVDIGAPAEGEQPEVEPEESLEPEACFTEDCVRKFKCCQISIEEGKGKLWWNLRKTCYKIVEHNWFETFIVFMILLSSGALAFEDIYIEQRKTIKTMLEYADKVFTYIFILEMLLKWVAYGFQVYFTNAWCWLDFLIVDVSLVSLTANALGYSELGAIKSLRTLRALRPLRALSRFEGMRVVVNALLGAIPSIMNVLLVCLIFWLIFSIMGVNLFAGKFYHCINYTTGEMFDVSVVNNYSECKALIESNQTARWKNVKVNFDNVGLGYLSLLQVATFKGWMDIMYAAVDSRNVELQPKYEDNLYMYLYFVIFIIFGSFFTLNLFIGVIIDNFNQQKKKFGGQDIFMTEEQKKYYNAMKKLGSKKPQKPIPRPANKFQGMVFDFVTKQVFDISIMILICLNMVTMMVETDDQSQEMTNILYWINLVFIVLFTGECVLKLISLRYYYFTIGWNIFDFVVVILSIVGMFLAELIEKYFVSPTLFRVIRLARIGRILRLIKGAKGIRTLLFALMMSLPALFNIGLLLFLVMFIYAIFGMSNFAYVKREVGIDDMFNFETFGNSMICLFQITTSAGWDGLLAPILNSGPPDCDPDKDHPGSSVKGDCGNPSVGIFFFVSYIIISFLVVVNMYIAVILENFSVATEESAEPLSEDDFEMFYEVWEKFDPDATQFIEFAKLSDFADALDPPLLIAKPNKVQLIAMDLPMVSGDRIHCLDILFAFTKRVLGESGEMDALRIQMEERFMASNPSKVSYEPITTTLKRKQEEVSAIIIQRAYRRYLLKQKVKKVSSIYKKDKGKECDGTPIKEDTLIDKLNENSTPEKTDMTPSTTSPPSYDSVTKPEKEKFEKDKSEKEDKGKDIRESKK

Key:
[1] = molecular target: T1, hNav1.7 (Homo sapiens, UniProt Q15858, W1161R); experiment: hNav1.7 IC50 (nM) | QP; conditions: read-out: hNav1.7 IC50 (nM) | QP
[2] = test system: rat model of nociceptive pain; experiment: Randall-Selitto paw pressure test after local dorsal hind paw injection; assay type: in vivo
[3] = molecular target: T2, hNav1.6 (Homo sapiens, UniProt Q9UQD0); experiment: hNav1.6 IC50 (nM) | QP; conditions: read-out: hNav1.6 IC50 (nM) | QP
[4] = molecular target: T1, hNav1.7; experiment: hNav1.7 IC50 (nM) | TETRA; conditions: read-out: hNav1.7 IC50 (nM) | TETRA
[5] = molecular target: hNav1.2 (Homo sapiens, UniProt Q99250); experiment: hNav1.2 IC50 (nM) | QP; conditions: read-out: hNav1.2 IC50 (nM) | QP
[6] = molecular target: T2, hNav1.6; experiment: hNav1.6 IC50 (nM) | TETRA; conditions: read-out: hNav1.6 IC50 (nM) | TETRA
[7] = molecular target: hNav1.1 (Homo sapiens, UniProt P35498); experiment: hNav1.1 IC50 (nM) | QP; conditions: read-out: hNav1.1 IC50 (nM) | QP
[8] = molecular target: T3, Nav1.7 (Homo sapiens, UniProt Q15858, W1161R); experiment: IC50 (Nav1.7) µM; conditions: read-out: IC50 (Nav1.7) µM
[9] = molecular target: T3, Nav1.7; experiment: IC50 (Nav1.7) µM; conditions: read-out: IC50 (Nav1.7) µM; remark: listed apart in the source
[10] = molecular target: T4, Nav1.2 (Homo sapiens, UniProt Q99250); experiment: IC50 (Nav1.2) µM; conditions: read-out: IC50 (Nav1.2) µM
[11] = molecular target: T4, Nav1.2; experiment: IC50 (Nav1.2) µM; conditions: read-out: IC50 (Nav1.2) µM; remark: listed apart in the source

| Compound | IC50 [1] [nM] | IC50 [3] [nM] | IC50 [4] [nM] | IC50 [5] [nM] | also measured |
| --- | --- | --- | --- | --- | --- |
| CC[C@H](C)[C@H](NC(=O)[C@H](CO)NC(=O)[C@H](Cc1c[nH]c2ccccc12)NC(=O)[C@H](CCCCN)NC(=O)[C@@H]1CSSC[C@@H]2NC(=O)[C@H](CCC(N)=O)NC(=O)[C@H](CC(=O)O)NC(=O)[C@H](CC(N)=O)NC(=O)[C@H](CO)NC(=O)[C@@H]3CCCN3C(=O)[C@H](CC(N)=O)NC(=O)[C@@H]3CSSC[C@H](NC(=O)[C@H](C(C)C)NC(=O)[C@H](CC(C)C)NC(=O)[C@H](CCCCN)NC(=O)[C@H](CO)NC(=O)[C@H](CO)NC(=O)[C@H](CCCCN)NC(=O)[C@H](CSSC[C@H](NC(=O)[C@H](CC(N)=O)NC(=O)[C@@H]4CCCN4C(=O)CN)C(=O)N[C@@H](CC(C)C)C(=O)N[C@@H](CCCNC(=N)N)C(=O)N[C@@H]([C@@H](C)CC)C(=O)N[C@@H](Cc4ccccc4)C(=O)N[C@@H](CCCCN)C(=O)N[C@@H](C)C(=O)N3)NC2=O)C(=O)N[C@@H](CO)C(=O)N[C@@H](CCCNC(=N)N)C(=O)N[C@@H](Cc2c[nH]cn2)C(=O)N[C@@H]([C@@H](C)O)C(=O)N[C@@H](CCCNC(=N)N)C(=O)N[C@@H](Cc2c[nH]c3ccccc23)C(=O)N1)C(=O)NCC(=O)N[C@@H](CCCCN)C(=O)O | 8 | – | – | – | – |
| CC[C@H](C)[C@H](NC(=O)[C@H](CO)NC(=O)[C@H](Cc1c[nH]c2ccccc12)NC(=O)[C@H](CCCCN)NC(=O)[C@@H]1CSSC[C@@H]2NC(=O)[C@H](CCC(N)=O)NC(=O)[C@H](CC(=O)O)NC(=O)[C@H](CC(N)=O)NC(=O)[C@H](CO)NC(=O)[C@@H]3CCCN3C(=O)[C@H](CC(N)=O)NC(=O)[C@@H]3CSSC[C@H](NC(=O)[C@H](C(C)C)NC(=O)[C@H](CC(C)C)NC(=O)[C@H](CCCCN)NC(=O)[C@H](CO)NC(=O)[C@H](CO)NC(=O)[C@H](CCCCN)NC(=O)[C@H](CSSC[C@H](NC(=O)[C@H](CC(N)=O)NC(=O)[C@@H]4CCCN4C(=O)CN)C(=O)N[C@@H](CC(C)C)C(=O)N[C@@H](CCCNC(=N)N)C(=O)N[C@@H]([C@@H](C)CC)C(=O)N[C@@H](Cc4ccccc4)C(=O)N[C@@H](CCCCN)C(=O)N[C@@H](C)C(=O)N3)NC2=O)C(=O)N[C@@H](CO)C(=O)N[C@@H](CC(=O)O)C(=O)N[C@@H](CCCCN)C(=O)N[C@@H]([C@@H](C)O)C(=O)N[C@@H](CCCNC(=N)N)C(=O)N[C@@H](Cc2c[nH]c3ccccc23)C(=O)N1)C(=O)NCC(=O)N[C@@H](CCCCN)C(=O)O | 8 | – | – | – | – |
| CCNCSSKWCRDHSRCC-NH2 | – | – | – | – | paw pressure threshold vs vehicle-treated animals ([2]; 3 nmoles s.c. dorsal hind paw): did not reach statistical significance; paw pressure threshold vs vehicle-treated animals ([2]; 30 nmoles s.c. dorsal hind paw): did not reach statistical significance; AUC of gram thresholds (mean vehicle AUC subtracted), comparison between dose groups ([2]; Pre and 5-60 min): no significant difference |
| CC[C@H](C)[C@@H]1NC(=O)[C@H](CCC(=O)O)NC(=O)[C@H](CC(C)C)NC(=O)[C@@H](NC(=O)[C@H](CC(N)=O)NC(=O)[C@@H]2CCCN2C(=O)CN)CSSC[C@@H]2NC(=O)[C@@H]3CSSC[C@@H](C(=O)N[C@@H](CCCCN)C(=O)N[C@@H](Cc4ccc(O)cc4)C(=O)N[C@@H](CO)C(=O)N[C@H](C(=O)N[C@H](C(=O)N[C@@H](CCCCN)C(=O)O)[C@@H](C)CC)[C@@H](C)CC)NC(=O)[C@H](Cc4c[nH]c5ccccc45)NC(=O)[C@H](CCCNC(=N)N)NC(=O)[C@H]([C@@H](C)O)NC(=O)[C@H](CCCCN)NC(=O)[C@H](CCCCN)NC(=O)[C@H](CO)NC(=O)[C@H](CSSC[C@H](NC(=O)[C@H](C)NC(=O)[C@H](CCCCN)NC(=O)[C@H](Cc4ccccc4)NC1=O)C(=O)N[C@@H](CC(N)=O)C(=O)N1CCC[C@H]1C(=O)N[C@@H](CO)C(=O)N[C@@H](CC(N)=O)C(=O)N[C@@H](CC(=O)O)C(=O)N[C@@H](CCC(N)=O)C(=O)N3)NC(=O)[C@H](C(C)C)NC(=O)[C@H](CC(C)C)NC(=O)[C@H](CCCCN)NC(=O)[C@H](CC(N)=O)NC(=O)[C@H](CO)NC(=O)[C@H](CCCCN)NC2=O | 32 | 202 | 208 | 567 | – |
| CC[C@H](C)[C@@H]1NC(=O)[C@H](CCC(=O)O)NC(=O)[C@H](CC(C)C)NC(=O)[C@@H](NC(=O)[C@H](CC(N)=O)NC(=O)[C@@H]2CCCN2C(=O)CN)CSSC[C@@H]2NC(=O)[C@@H]3CSSC[C@@H](C(=O)N[C@@H](CCCCN)C(=O)N[C@@H](Cc4ccc(O)cc4)C(=O)N[C@@H](CO)C(=O)N[C@H](C(=O)N[C@H](C(=O)N[C@@H](CCCCN)C(=O)O)[C@@H](C)CC)[C@@H](C)CC)NC(=O)[C@H](Cc4c[nH]c5ccccc45)NC(=O)[C@H](CCCNC(=N)N)NC(=O)[C@H]([C@@H](C)O)NC(=O)[C@H](CCCCN)NC(=O)[C@H](CCCCN)NC(=O)[C@H](CO)NC(=O)[C@H](CSSC[C@H](NC(=O)[C@H](C)NC(=O)[C@H](CCCCN)NC(=O)[C@H](Cc4ccccc4)NC1=O)C(=O)N[C@@H](CC(N)=O)C(=O)N1CCC[C@H]1C(=O)N[C@@H](CO)C(=O)N[C@@H](CC(N)=O)C(=O)N[C@@H](CC(=O)O)C(=O)N[C@@H](CCC(N)=O)C(=O)N3)NC(=O)[C@H](C(C)C)NC(=O)[C@H](CC(C)C)NC(=O)[C@H](Cc1ccccc1)NC(=O)[C@H](CO)NC(=O)[C@H](CO)NC(=O)[C@H](CCCCN)NC2=O | 17 | 267 | 145 | 601 | IC50 [6]: > 1000 nM; IC50 [7]: 81 nM |
| CC[C@H](C)[C@H](NC(=O)[C@H](CCC(N)=O)NC(=O)[C@H](Cc1c[nH]c2ccccc12)NC(=O)[C@H](CCCCN)NC(=O)[C@@H]1CSSC[C@@H]2NC(=O)[C@H](CCC(N)=O)NC(=O)[C@H](CC(=O)O)NC(=O)[C@H](CC(N)=O)NC(=O)[C@H](CO)NC(=O)[C@@H]3CCCN3C(=O)[C@H](CC(N)=O)NC(=O)[C@@H]3CSSC[C@H](NC(=O)[C@H](C(C)C)NC(=O)[C@H](CC(C)C)NC(=O)[C@H](CCCCN)NC(=O)[C@H](CO)NC(=O)[C@H](CO)NC(=O)[C@H](CCCCN)NC(=O)[C@H](CSSC[C@H](NC(=O)[C@H](CCC(=O)O)NC(=O)[C@@H]4CCCN4C(=O)CN)C(=O)N[C@@H](CC(C)C)C(=O)N[C@@H](CCC(=O)O)C(=O)N[C@@H]([C@@H](C)CC)C(=O)N[C@@H](Cc4ccccc4)C(=O)N[C@@H](CCCCN)C(=O)N[C@@H](C)C(=O)N3)NC2=O)C(=O)N[C@@H](CO)C(=O)N[C@@H](CCCNC(=N)N)C(=O)N[C@@H](CCCCN)C(=O)N[C@@H]([C@@H](C)O)C(=O)N[C@@H](CCCNC(=N)N)C(=O)N[C@@H](Cc2c[nH]c3ccccc23)C(=O)N1)C(=O)NCC(=O)N[C@@H](CCCCN)C(=O)O | – | – | – | – | IC50 [8]: 0.02 µM; IC50 [9]: 0.01 µM; IC50 [10]: 0.01 µM; IC50 [11]: 0.26 µM |
